# Reference: paper PMC12270681 (The Journal of Biological Chemistry, 2025)
# Molecular target: Cb-cParM, chromosome-encoded ParM of Clostridium botulinum Bf (Clostridium botulinum Bf)
# Assay: co-sedimentation
substance,measurement,value
"Cb-cParM, chromosome-encoded ParM of Clostridium botulinum Bf (natural protein)",critical concentration (with ADP),1.81 µM
same,critical concentration (with ATP),0.31 µM
same,critical concentration (with GDP),1.92 µM
same,critical concentration (with GTP),0.61 µM
